In patent publication US20250109162A1, “FLEX-NUCLEOSIDE ANALOGUES, NOVEL THERAPEUTICS AGAINST VIRUSES” (UNIVERSITY OF MARYLAND, BALTIMORE COUNTY, priority 2022, published 2025):

Key:
[1] = system: Epstein-Barr virus, strain Akata; type: cell-based
[2] = system: Dengue Virus 2, strain New Guinea C; type: cell-based

Compound | SI90 - CC50/EC90 [1] | SI50 - CC50/EC50 [2]
Cc1ccc(-c2cn([C@@H]3C[C@@H](O)[C@H](CO)O3)c(=O)[nH]c2=O)s1 [CHK-03, 1-((2S,4R,5S)-4-hydroxy-5-(hydroxymethyl)tetrahydrofuran-2-yl)-5-(5-methylthiophen-2-yl)pyrimidine-2,4(1H,3H)-dione] | >5 | 
Nc1nc(=O)n([C@@H]2C[C@@H](O)[C@H](CO)O2)cc1-c1ccco1 [CHK-05, 4-amino-5-(furan-2-yl)-1-((2S,4R,5S)-4-hydroxy-5-(hydroxymethyl)tetrahydrofuran-2-yl)pyrimidin-2(1H)-one] | >5 | >1.3
Nc1ccn(C[C@@H](CO)OCP(=O)(O)O)c(=O)n1 [Cidofovir, reference compound] | >1 | 
C#C[C@@]1(O)[C@H](O)[C@@H](CO)O[C@H]1n1ccc2c(N)ncnc21 [NITD008] |  | >280 and >230

“And” between values parts separate entries of the source, which are not always exact repeats. Equal values may be shown once.
